Results of unrelated studies side by side (data: NIAID ChemDB).

All rows: growth or infection tests; agent: HIV-1; read-out: EC50

Rows are shuffled and stem from different studies. Two numbers with a dash give a range or band. ECn is the concentration giving n% inhibition of infection, replication or growth.

{"compound": "CCCc1cc(=O)oc2c3c(c4c(c12)OC(C)(C)C=C4)O[C@@H](C)[C@H](C)[C@@H]3N", "cells": "CEM + CEM-SS", "strain": "RF", "result": "0.6 µM"}
{"compound": "CC1=C2OCC(C)c3c(O)cc(C)c(c32)C(=O)C1=O", "cells": "H9", "result": "16.58 µg/mL"}
{"compound": "CC(C)Nc1cccnc1N1CCN(C(=O)c2cc3cc(NS(C)(=O)=O)ccc3[nH]2)CC1", "cells": "PBMC", "strain": "IIIB", "result": "0.009 µM"}
{"compound": "Cc1cn([C@H]2C=C[C@@H](CO)O2)c(=O)[nH]c1=O", "cells": "MT-4", "strain": "RTMC (P-0)", "result": "1.2 µM"}
{"compound": "Cc1cn([C@@H]2O[C@H](CO[Si](C)(C)C(C)(C)C)C3(OS(=O)(=O)C=C3N)[C@H]2O[Si](C)(C)C(C)(C)C)c(=O)n(C/C=C/CO)c1=O", "result": "0.03–0.76 µM"}
{"compound": "Cc1ncnc(C)c1C(=O)N1CCC(C)(N2CCN([C@@H](Cc3ccccc3)c3ccc(C(F)(F)F)cc3)[C@@H](C)C2)CC1", "cells": "PBMC", "strain": "ADA-M Clinical isolates", "result": "<0.00004 µM"}
{"compound": "Cc1cc(OC[C@H]2CNCCO2)ccc1NC(=O)COc1ccc(Cl)cc1C(=O)c1cc(C#N)cc(OC(F)F)c1", "cells": "HeLa", "result": "0.0003 µM"}
{"compound": "COC(=O)C(O)(c1c[nH]c2ccc(C#N)cc12)C(F)(F)F", "cells": "TZM-bl", "strain": "IIIB", "result": "92.5 µM"}
{"compound": "CCCCC1OP(=O)(OC[C@@H]2C=C[C@H](n3cc(C)c(=O)[nH]c3=O)O2)Oc2cccc(Cl)c21", "cells": "CEM", "result": "0.2 µM"}
{"compound": "CN1[C@@H](c2cccc(I)c2)c2ccccc2S1(=O)=O", "result": "0.076 µM"}
{"compound": "Cc1cn([C@H]2C=C[C@@H](COP3(=O)OCc4ccc5ccccc5c4O3)O2)c(=O)[nH]c1=O", "cells": "CEM", "result": "0.11 µM"}
{"compound": "Cc1ccnc2c1NC(=O)c1cccnc1N2C1CC1", "mutations": "RT-K103N Y181C", "cells": "PBMC", "strain": "A17", "result": ">100 µM"}
{"compound": "Cc1cc(S(N)(=O)=O)ccc1NC(=O)COc1ccc(Cl)cc1C(=O)c1cc(C#N)cc(C(=O)N2CCOCC2)c1", "mutations": "WTRVA", "cells": "HeLa", "result": "0.16 µM"}
{"compound": "O=C(O)P(=O)(O)O", "cells": "PBMC", "strain": "LAI", "result": "0.43 µM"}
{"compound": "CCOC(=O)C(O)(c1c[nH]c2ccccc12)C(F)(F)F", "cells": "TZM-bl", "strain": "IIIB", "result": "2.994 µM"}
{"compound": "O=C1C(=O)N(Cc2ccccc2)C(Sc2ccccc2)C(O)C(Sc2ccccc2)N1Cc1ccccc1", "cells": "MT-4", "result": "0.5 µM"}
{"compound": "Cc1cn([C@H]2C[C@H](N=[N+]=[N-])[C@@H](CO)O2)c(=O)[nH]c1=O", "cells": "H9", "result": "0.0007 µg/mL"}
{"compound": "CCCn1c(=O)c(C)cn([C@@H]2O[C@H](CO[Si](C)(C)C(C)(C)C)C3(OS(=O)(=O)C=C3N)[C@H]2O[Si](C)(C)C(C)(C)C)c1=O", "result": "0.03–0.76 µM"}
{"compound": "CC1(Cn2cnc3c(=O)[nH]c(N)nc32)CC1CO", "result": ">100 µg/mL"}
{"compound": "Cc1cn([C@@H]2O[C@H](CO[Si](C)(C)C(C)(C)C)C3(OS(=O)(=O)C=C3N)[C@H]2O[Si](C)(C)C(C)(C)C)c(=O)n(CCC2C=Nc3ccccc32)c1=O", "result": "0.03–0.76 µM"}
{"compound": "CCOC(=O)C(O)(c1c[nH]c2ccc([N+](=O)[O-])cc12)C(F)(F)F", "cells": "TZM-bl", "strain": "IIIB", "result": "0.045 µM"}
{"compound": "S=C(NCCC1=CCCCC1)Nc1ccccn1", "cells": "PBMC", "strain": "IIIB", "result": "0.03 µM"}
{"compound": "CC(C)c1cc(=O)oc2c3c(c4c(c12)OC(C)(C)C=C4)O[C@H](C)[C@@H](C)C3=O", "cells": "CEM + CEM-SS", "strain": "IIIB", "result": "1.88 µM"}
{"compound": "Cc1cn([C@H]2C[C@H](N=[N+]=[N-])[C@@H](CO)O2)c(=O)[nH]c1=O", "cells": "MT-2", "strain": "IIIB", "result": "0.09 µM"}
{"compound": "CCOC(=O)C(O)(c1c[nH]c2ccc(F)cc12)C(F)(F)F", "cells": "TZM-bl", "strain": "IIIB", "result": "0.308 µM"}
{"compound": "CCOC(=O)/C=C\\n1c(=O)c(C)cn([C@@H]2O[C@H](CO[Si](C)(C)C(C)(C)C)C3(OS(=O)(=O)C=C3N)[C@H]2O[Si](C)(C)C(C)(C)C)c1=O", "result": "0.03–0.76 µM"}
{"compound": "Nc1ccn([C@H]2CC[C@@H](CO)O2)c(=O)n1", "cells": "MT-2", "strain": "IIIB", "result": "0.6 µM"}
{"compound": "Cc1cc(S(N)(=O)=O)ccc1NC(=O)COc1ccc(Cl)cc1C(=O)c1cc(C#N)cc(C(=O)O)c1", "mutations": "WTRVA", "cells": "HeLa", "result": "0.93 µM"}
{"compound": "Cc1cn([C@H]2C=C[C@@H](COP3(=O)OCc4c(Cl)cccc4O3)O2)c(=O)[nH]c1=O", "cells": "CEM", "result": "0.1 µM"}
{"compound": "Cc1cn([C@@H]2O[C@H](CO[Si](C)(C)C(C)(C)C)C3(OS(=O)(=O)C=C3N)[C@H]2O[Si](C)(C)C(C)(C)C)c(=O)n(CCCN(CCCl)CCCl)c1=O", "result": "0.03–0.76 µM"}
{"compound": "O=C1N(CC2CC2)[C@H](Cc2ccccc2)[C@H](O)[C@@H](O)[C@@H](Cc2ccccc2)N1CC1CC1", "cells": "MT-2", "strain": "RF", "result": "<1.84 µM"}
{"compound": "Cc1cn([C@@H]2O[C@H](CO[Si](C)(C)C(C)(C)C)C3(OS(=O)(=O)C=C3N)[C@H]2O[Si](C)(C)C(C)(C)C)c(=O)n(CCO)c1=O", "result": "0.03–0.76 µM"}
{"compound": "CC(C)c1cc(=O)oc2c3c(c4c(c12)OC(C)(C)C=C4)O[C@@H](C)[C@H](C)[C@@H]3N=[N+]=[N-]", "cells": "CEM + CEM-SS", "strain": "RF", "result": "1.6 µM"}
{"compound": "CC(=O)OCCOCn1c(-c2ccccn2)c([N+](=O)[O-])c2ccccc21", "cells": "MT-4", "result": ">200 µM"}
{"compound": "Cc1cccc([C@H]2c3ccccc3S(=O)(=O)N2C)c1", "result": "0.037 µM"}
{"compound": "Cc1cn([C@H]2C=C[C@@H](CO)O2)c(=O)[nH]c1=O", "cells": "MT-2", "strain": "IIIB", "result": "6 µM"}
{"compound": "O=[N+]([O-])c1c(-c2ccccn2)n(COCCO)c2ccccc12", "cells": "MT-4", "result": ">200 µM"}
{"compound": "COC(=O)/C=C/Cn1c(=O)c(C)cn([C@@H]2O[C@H](CO[Si](C)(C)C(C)(C)C)C3(OS(=O)(=O)C=C3N)[C@H]2O[Si](C)(C)C(C)(C)C)c1=O", "result": "0.03–0.76 µM"}
{"compound": "CC(=O)Nc1cc(C#N)cc(C(=O)c2cc(Cl)ccc2OCC(=O)Nc2ccc(S(N)(=O)=O)cc2C)c1", "mutations": "V106A", "cells": "HeLa", "result": "1.1 µM"}
{"compound": "CC1(Cn2cnc3c(N)nc(Cl)nc32)CC1CO", "result": ">100 µg/mL"}
{"compound": "CC(=O)OCCOCn1c(-c2ccccc2)c(Br)c2ccccc21", "cells": "MT-4", "result": ">120 µM"}
{"compound": "COC(=O)c1cc(C#N)cc(C(=O)c2cc(Cl)ccc2OCC(=O)Nc2ccc(S(N)(=O)=O)cc2C)c1", "mutations": "WTRVA", "cells": "HeLa", "result": "0.0009 µM"}
{"compound": "CC(=O)OCCOCn1c(-c2ccccn2)c(Br)c2ccccc21", "cells": "MT-4", "result": ">200 µM"}
{"compound": "Cc1cc(S(N)(=O)=O)ccc1NC(=O)COc1ccc(Cl)cc1C(=O)c1cc(C#N)cc(OC(F)F)c1", "mutations": "Y181C", "cells": "HeLa", "result": "0.0018 µM"}
{"compound": "CC(C)c1cc(=O)oc2c3c(c4c(c12)OC(C)(C)C=C4)C[C@@H](C)[C@H](C)[C@@H]3O", "cells": "CEM + CEM-SS", "strain": "RF", "result": "0.2 µM"}
{"compound": "O=C(NCCCCN1CCCC2=C[C@H]3C[C@H](CN4CCCC[C@H]34)[C@@H]21)c1ccc(CNS(=O)(=O)C(F)(F)F)cc1", "result": ">20 µM"}
{"compound": "CC(=O)OCCOCn1cc(C#N)c2ccccc21", "cells": "MT-4", "result": ">200 µM"}
{"compound": "Cc1cn([C@@H]2O[C@H](CO[Si](C)(C)C(C)(C)C)[C@@]3(OS(=O)(=O)C=C3N)[C@H]2O[Si](C)(C)C(C)(C)C)c(=O)n(CCCN)c1=O", "result": "0.03–0.76 µM"}
{"compound": "Cc1cn([C@H]2C=C[C@@H](COP3(=O)OCc4c(ccc5ccccc45)O3)O2)c(=O)[nH]c1=O", "cells": "CEM", "result": "0.08 µM"}
{"compound": "S=C(NCCC1=CCCCC1)Nc1ccc(Br)cn1", "cells": "PBMC", "strain": "IIIB", "result": "0.003 µM"}
{"compound": "Cc1cc(S(N)(=O)=O)ccc1NC(=O)COc1ccc(Cl)cc1C(=O)c1cc(N)cc(C#N)c1", "mutations": "V106A", "cells": "HeLa", "result": "0.027 µM"}
{"compound": "CC[C@@H](c1ccc(C(F)(F)F)cc1)N1CCN(C2(C)CCN(C(=O)c3c(C)ncnc3C)CC2)C[C@@H]1C", "cells": "PBMC", "strain": "JV1083 Clinical isolates", "result": "<0.018 µM"}
{"compound": "CC(C)=CCN1Cc2cc(Cl)cc3[nH]c(=S)n(c23)C[C@@H]1C", "mutations": "RT-K70R Y181C", "cells": "MT-4", "result": "<3 µM"}
{"compound": "Cc1cc(S(N)(=O)=O)ccc1NC(=O)COc1ccc(Cl)cc1C(=O)c1cc(C#N)cc([N+](=O)[O-])c1", "mutations": "Y181C", "cells": "HeLa", "result": "0.0015 µM"}